The entries are a selection whose mix differs from that of the whole data set. The source made the active and inactive calls. Cut-off read from the data, not from the text of the source: active = inhibition above about 30%; inconclusive = no clear call, values can overlap the other calls; inactive = below that.
biological target: Protein RecA (Mycobacterium tuberculosis (strain ATCC 25618 / H37Rv)) (UniProt P9WHJ3); test: Mtb RecA intein splicing inhibitors, primary screen, biochemical, fluorescence, HTS (AID 2221); details: cell-free RecA intein splicing, active compounds read high, concentration not given here;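 note: 0% = vehicle wells and 100% = reference inhibitor control wells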

The chains behind the UniProt entries cited, without tags or fusion partners. Where a name states a change or a piece, a line headed by the entry shows the natural chain unless it says otherwise.
UniProt P9WHJ3: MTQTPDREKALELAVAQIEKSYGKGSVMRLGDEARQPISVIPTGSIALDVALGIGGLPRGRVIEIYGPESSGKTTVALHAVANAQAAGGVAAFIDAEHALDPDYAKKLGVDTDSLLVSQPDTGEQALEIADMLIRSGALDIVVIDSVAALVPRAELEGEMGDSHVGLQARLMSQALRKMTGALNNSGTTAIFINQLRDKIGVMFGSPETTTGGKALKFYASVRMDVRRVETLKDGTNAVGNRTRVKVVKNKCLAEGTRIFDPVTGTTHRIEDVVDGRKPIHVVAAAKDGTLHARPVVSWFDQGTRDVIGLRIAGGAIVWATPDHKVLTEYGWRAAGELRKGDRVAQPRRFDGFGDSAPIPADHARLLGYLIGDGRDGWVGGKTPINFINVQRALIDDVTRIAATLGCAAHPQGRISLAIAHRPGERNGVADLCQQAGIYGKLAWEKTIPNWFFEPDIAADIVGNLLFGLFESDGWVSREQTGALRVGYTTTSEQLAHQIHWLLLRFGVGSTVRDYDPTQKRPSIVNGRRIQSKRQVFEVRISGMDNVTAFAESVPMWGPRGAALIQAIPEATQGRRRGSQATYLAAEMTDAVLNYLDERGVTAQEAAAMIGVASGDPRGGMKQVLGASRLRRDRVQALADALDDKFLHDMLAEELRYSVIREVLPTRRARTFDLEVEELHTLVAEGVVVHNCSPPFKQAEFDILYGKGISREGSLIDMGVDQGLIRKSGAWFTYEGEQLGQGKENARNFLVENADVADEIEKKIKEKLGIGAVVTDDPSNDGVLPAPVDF

| SMILES | inhibition |
| --- | --- |
| O=C(O)c1ccccc1[As](=O)(O)O | active: 96.9% |
| O=[N+]([O-])c1cc([N+](=O)[O-])c(CCN2CCOCC2)c([N+](=O)[O-])c1 | active: 77.9% |
| Nc1cc(N)c2nonc2c1[N+](=O)[O-] | active: 34.2% |
| CCc1nc2c(n1)c1c(non1O)c1c2no[n+]1[O-] | active: 90.2% |
| O=[N+]([O-])c1cccc2n[nH]nc12 | active: 48.7% |
| C[N+]1=C2C=CC=CC=C2SC12C([N+](=O)[O-])=CC([N+](=O)[O-])=C[C-]2[N+](=O)[O-] (stereo unspecified) | active: 57.2% |
